# Reference: PubChem BioAssay AID375 (SRMLSC, 2006)
# The chains behind the UniProt entries cited, without tags or fusion partners. Where a name states a change or a piece, a line headed by the entry shows the natural chain unless it says otherwise.
# UniProt P9WIL5: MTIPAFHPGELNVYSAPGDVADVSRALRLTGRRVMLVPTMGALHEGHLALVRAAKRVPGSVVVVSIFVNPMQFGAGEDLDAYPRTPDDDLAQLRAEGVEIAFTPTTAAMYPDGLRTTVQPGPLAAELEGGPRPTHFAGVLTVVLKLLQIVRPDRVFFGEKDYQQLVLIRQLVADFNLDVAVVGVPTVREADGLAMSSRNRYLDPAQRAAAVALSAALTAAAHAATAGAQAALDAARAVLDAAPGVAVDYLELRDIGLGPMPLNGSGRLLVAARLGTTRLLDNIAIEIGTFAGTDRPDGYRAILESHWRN
# The entries are a selection whose mix differs from that of the whole data set. Calls of active or inactive are those of the source. No rule for the calls is given here.
# Molecular target: Pantothenate synthetase (Mycobacterium tuberculosis (strain ATCC 25618 / H37Rv)) (UniProt P9WIL5)
# Experiment: Coupled enzyme confirmation of inhibitors against recombinant Mtb PanC (AID 375);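 also: 0% = full reaction with vehicle and 100% = no enzyme background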
# Details: coupled enzyme assay, at 10 µM, hits give high values
row,SMILES,inhibition
1,O=P(Nc1nccs1)(c1ccccc1)c1ccccc1,inactive: 2%
2,O=C(COc1ccccc1)OC1CN2CCC1CC2 (stereo not given),inactive: 0%
3,COP1(=S)c2c(C)nn(CCC#N)c2N=C(c2ccc(F)cc2)N1C (stereo not given),inactive: 0%
4,CCOP1(=S)c2c(C)nn(CCC#N)c2N=C(c2ccccc2F)N1C (stereo not given),inactive: 0%
5,Cc1nn(-c2ccccc2)c2c1P(=O)(N1CCOCC1)N(C)C(c1ccccc1)=N2 (stereo not given),inactive: 0%
